Compound potency records, mixed from different reports. Data source: NIAID ChemDB in PubChem.

Shared fields: tests in culture; organism: HIV-1; cells: MT-4; endpoint: fold resistance

Blank or dashed fields: not listed here. Lines come from different laboratories, so protocols vary. Fold resistance has wild type as its base.

structure	strain	changes	method	result
CCc1c(C)[nH]c(=O)c(N(C)C)c1Cc1cccc(C)c1		RT-Y181C	cytopathic effect / MTT	30
CC(=O)Nc1cccc2c1nc(-c1c(F)cccc1F)n2Cc1c(F)cccc1F		RT-K101E	cytopathic effect / MTT	>12.5
CC(=O)N(C)c1cccc2c1nc(-c1c(F)cccc1F)n2Cc1c(F)cccc1F		RT-L100I	cytopathic effect / MTT	0.97
COc1ccc(S(=O)(=O)N(CC(C)C)C[C@@H](O)[C@H](Cc2ccccc2)NC(=O)O[C@H]2CO[C@H]3OCC(F)(F)[C@H]32)cc1	NL4-3	M46I I50V N38K M36I GRL05010-resistant		58
CC(C)(C)NC(=O)[C@@H]1C[C@@H]2CCCC[C@@H]2CN1C[C@@H](O)[C@H](Cc1ccccc1)NC(=O)[C@H](CC(N)=O)NC(=O)c1ccc2ccccc2n1	NL4-3	PR-L10R M46I	p24	1
Cc1cc(C)cc(Cc2c(CC(C)C)c(C)[nH]c(=O)c2N(C)C)c1	Recombinant	RT-Y188L	cytopathic effect / MTT	157
Cc1cc(C)cc(S(=O)(=O)c2c(C(N)=O)[nH]c3ccc(Cl)cc23)c1		RT-Y181C	cytopathic effect / MTT	8
O=c1[nH]cnc2c1ncn2[C@H]1CC[C@@H](CO)O1	XM-M184V	RT-M184V	p24	1
N#Cc1ccc(Nc2nc(Cc3c(Cl)cccc3Cl)nc(NO)n2)cc1	NNRTI-resistant (RT L100I K103N)	RT-L100I K103N	cytopathic effect / MTT	2500
CC(C)=CCN1c2cc(Cl)cc3[nH]c(=S)n(c23)C[C@@H]1C		RT-L74V A98G		0.8
CCOCn1c(Cc2ccccc2)c(C(C)C)c(=O)[nH]c1=O		RT-K101E	cytopathic effect / MTT	15.7
C/C(C#N)=C\c1cc(C)c(Nc2ccnc(Nc3ccc(C#N)cc3)n2)c(C)c1		RT-Y188L	cytopathic effect / MTT	3.95
CCc1c(C)[nH]c(=O)c(N(C)C)c1C(=O)c1cccc(Br)c1		RT-K101E K103N	cytopathic effect / MTT	37
Cc1cccc(S(=O)(=O)c2c(C(=O)NNCCO)[nH]c3ccc(Cl)cc23)c1		RT-Y181C	cytopathic effect / MTT	14
Cc1cn([C@H]2C[C@H](N=[N+]=[N-])[C@@H](CO)O2)c(=O)[nH]c1=O	XM-AZT-resistant	RT-M41L D67N K70R T215Y K219Q	p24	1150
Nc1cccc2c1nc(-c1c(F)cccc1F)n2Cc1c(F)cccc1F	4XAZT/L100I (RT D67N K70R L100I T215Y K219Q)	RT-D67N K70R L100I T215Y K219Q	cytopathic effect / MTT	0.75
Nc1nc(=O)n([C@H]2CS[C@@H](CO)O2)cc1F	RF	RT-M184I	cytopathic effect / MTT	3.37
CC(=O)N(C)c1cccc2c1nc(-c1c(F)cccc1F)n2Cc1c(F)cccc1F		RT-L100I	cytopathic effect / MTT	0.97
CCN[C@H]1CO[C@@H]2OCC[C@H](OC(=O)N[C@@H](Cc3cccc(OC)c3)[C@H](O)CN(CC(C)C)S(=O)(=O)c3ccc4nc(NC(C)C)sc4c3)[C@@H]21	NL4-3	L10I I54V K20R L24I V32I L33F M36I M46I I54M L63P K70Q V82I I84V L89M	p24 / luminescence	26
CCc1c(C)[nH]c(=O)c(N(C)C)c1C(=O)c1cc(Cl)cc(Cl)c1		RT-K103N Y181C	cytopathic effect / MTT	79
CCCN(C)c1c(Cc2cc(C)cc(C)c2)c(CC)c(C)[nH]c1=O	Recombinant	RT-Y188L	cytopathic effect / MTT	24.8
CC(C)Nc1cccnc1N1CCN(C(=O)c2cc3cc(NS(C)(=O)=O)ccc3[nH]2)CC1	LZ-07.96 (HXB2 RT T69N L74I Q151M M184V)	RT-T69N L74I Q151M M184V	cytopathic effect	2.5
CCN[C@H]1CO[C@@H]2OCC[C@H](OC(=O)N[C@@H](Cc3ccccc3)[C@H](O)CN(CC(C)C)S(=O)(=O)c3ccc4nc(NC5CC5)sc4c3)[C@@H]21	NL4-3	L10I I54V K20R L24I V32I L33F M36I M46I I54M L63P K70Q V82I I84V L89M	p24 / luminescence	19
CC(=O)Nc1cccc2c1nc(-c1c(F)cccc1F)n2Cc1c(F)cccc1F		RT-L100I	cytopathic effect / MTT	16
CCc1c(C)[nH]c(=O)c(N(C)C)c1C(=O)c1cccc(C(C)=O)c1		RT-K103N	cytopathic effect / MTT	12.6
Cc1ccc(S(=O)(=O)c2c(C(=O)NNCCO)[nH]c3ccc(Cl)cc23)c(C)c1		RT-K103N Y181C	cytopathic effect / MTT	>250
Fc1cccc(F)c1Cn1c(-c2c(F)cccc2F)nc2c(Br)cccc21		RT-V108I	cytopathic effect / MTT	6.4
CC(C)CN(C[C@@H](O)[C@H](Cc1ccccc1)NC(=O)O[C@H]1CCO[C@H]2OCC[C@H]21)S(=O)(=O)c1ccc2nc(NC3CC3)sc2c1	NL4-3	L10F M46I I54V V82A	p24 / luminescence	87
Fc1cccc(F)c1Cn1c(-c2c(F)cccc2F)nc2c(Br)cccc21		RT-K103N	cytopathic effect / MTT	20.4
Nc1ccn([C@H]2CC[C@@H](CO)O2)c(=O)n1	BI-03.97 (HXB2(RT-A62V S68G T69D V75I F77L F116Y Q151M))	RT-A62V S68G T69D V75I F77L F116Y Q151M	cytopathic effect	>23.4
CCc1cccc2c1nc(-c1c(F)cccc1F)n2Cc1c(F)cccc1F		RT-K101E	cytopathic effect / MTT	17.1
CCc1c(C)[nH]c(=O)c(N(C)C)c1C(=O)c1cccc(/C(C)=C/C#N)c1		RT-K101E K103N	cytopathic effect / MTT	25
Cc1cc(C)cc(S(=O)(=O)c2c(C(=O)NNCCO)[nH]c3ccc(Cl)cc23)c1		RT-Y181C	cytopathic effect / MTT	40
CC(C)CN(C[C@@H](O)[C@H](Cc1ccccc1)NC(=O)[C@H](CC(N)=O)NC(=O)c1ccc2ccccc2n1)C(=O)NC(C)(C)C	NL4-3	PR-M46I L63P V82T	p24	2
CC(C)c1nc(CN(C)C(=O)N[C@H](C(=O)N[C@@H](Cc2ccccc2)C[C@H](O)[C@H](Cc2ccccc2)NC(=O)OCc2cncs2)C(C)C)cs1	NL4-3	PR-I84V	p24	16
Cc1cn([C@H]2C=C[C@@H](CO)O2)c(=O)[nH]c1=O	LZ-07.96 (HXB2 RT T69N L74I Q151M M184V)	RT-T69N L74I Q151M M184V	cytopathic effect	19.08
CCc1c(C)[nH]c(=O)c(N(C)C)c1Cc1cccc(/C=C/C#N)c1		RT-K101E K103N	cytopathic effect / MTT	62.5
CN[C@H]1CO[C@@H]2OCC[C@H](OC(=O)N[C@@H](Cc3cccc(OC)c3)[C@H](O)CN(CC(C)C)S(=O)(=O)c3ccc4nc(NC(C)C)sc4c3)[C@@H]21	NL4-3	L23I E34Q K43I M46I I50L G51A L63P A71V V82A T91A	p24 / luminescence	0.1
COC(=O)N[C@H](C(=O)N[C@@H](Cc1ccccc1)[C@@H](O)CN(Cc1ccc(-c2ccccn2)cc1)NC(=O)[C@@H](NC(=O)OC)C(C)(C)C)C(C)(C)C	NL4-3	A28S L33F V82I GRL04810-resistant		81
Cc1cc(C)c(Nc2nc(Nc3ccc(C#N)cc3)ncc2Cl)c(C)c1	NNRTI-resistant (RT K103N Y181C)	RT-K103N Y181C	cytopathic effect / MTT	38
Cc1cn([C@H]2C[C@H](N=[N+]=[N-])[C@@H](CO)O2)c(=O)[nH]c1=O	HXB2-D184 (RT-M184V)	RT-M184V	RT activity	1.8
O=c1[nH]cnc2c1ncn2[C@H]1CC[C@@H](CO)O1	IIIB	RT-M184V	cytopathic effect / MTT	4
CC(C)CN(C[C@@H](O)[C@H](Cc1ccccc1)NC(=O)O[C@H]1CO[C@H]2OCC(F)(F)[C@H]21)S(=O)(=O)c1ccc(N)cc1	NL4-3	M46I I50V N38K M36I GRL05010-resistant		10
O=S(=O)(O)OC1C(OS(=O)(=O)O)C(OS(=O)(=O)O)C(OS(=O)(=O)O)C(OS(=O)(=O)O)C1OS(=O)(=O)O	NL4-3	GP120-N323D	cytopathic effect / MTT	1
CCc1cc(NCc2nc3c(Cl)ccc(Cl)c3o2)c(=O)[nH]c1C	DLV-resistant MF (RT-P236L)	RT-P236L	p24	3.91